Only a part is listed here, and it is no random draw. Some structures show a salt or complex split into parts, the way the source records it. Activity calls are given as the source filed them. No stated cut-off is given here; in the data, active means growth inhibition above about 68%; inactive means the rest.

The test can be described thus: growth inhibition of ugtP-null S. aureus, primary screen, RN4220 ugtP deletion, OD600 (AID 1259309).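 Further: plate controls were untreated wells for no effect and antibiotic for full effect.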 Conditions: 16 h, active compounds read high.
In the case of `O=P1(Nc2ccc(Br)cn2)COc2ccccc2OC1`, the growth inhibition was inactive: -8.93%. Then `NS(=O)(=O)c1cccc(NC(=O)COC(=O)C(O)(c2ccccc2)c2ccccc2)c1`, with inactive: 2.74%; and `Cc1ccc(OCC(=O)OC2CN3CCC2CC3)cc1` (centres undefined), with inactive: 5.36%; and `O=[As](O)(c1cccs1)c1cccs1`, with inactive: 8.24%. Regarding `Nc1cccc([As](=O)(O)c2ccccc2)c1`, the growth inhibition was inactive: 5.95%.

`CP(=O)(Nc1ccc(SC(F)(F)F)cc1)Oc1ccccc1` (centres undefined): the growth inhibition is inactive: 3.25%. Then `CCCOc1ccc(NP(C)(=O)Oc2ccc(Cl)cc2)cc1` (centres undefined), with inactive: 6.98%; and `O=P1(Nc2ncccn2)COc2ccccc2OC1`, with inactive: 6.44%.

As for `COc1ccccc1OP(C)(=O)Nc1c(C)cccc1C` (centres undefined), the growth inhibition is inactive: -1.2%. The result for `CN1CCCCC1COC(=O)C1(O)c2ccccc2CCc2ccccc21` (centres undefined) reads inactive: 2.74%. With `O=C(/C=C/c1ccccc1)OC1CN2CCC1CC2` (centres undefined), the growth inhibition was inactive: 17%. As to `CCCC1OP(=O)(Nc2ccccc2)OCC1CC` (centres undefined), the growth inhibition was inactive: 7.75%. The result for `O=[N+]([O-])c1cc([N+](=O)[O-])c(Nc2nnnn2CCO)c([N+](=O)[O-])c1` reads inactive: 16.1%. Then `CN(C)C1(CNC(=O)c2ccc(S(C)(=O)=O)cc2)CCCCC1`, with inactive: 0.936%. Then `CCOC(=O)C(CC)C1=NC(C)(C)Cc2ccccc21.O=[N+]([O-])c1cc([N+](=O)[O-])c(O)c([N+](=O)[O-])c1` (centres undefined), with inactive: -5.45%; and `COc1cc(C2NCCC3(OCCO3)C2(C)C)cc(OC)c1OC.O=[N+]([O-])c1cc([N+](=O)[O-])c(O)c([N+](=O)[O-])c1` (centres undefined), with inactive: 2.85%; and `Cc1nn(-c2ccccc2)c2c1P(=O)(N1CCOCC1)N(C)C(c1ccccc1)=N2` (centres undefined), with inactive: 4.12%. On to `CC1CCC(C(C)C)C(OP(=O)(Nc2ccccn2)c2ccccc2)C1` (centres undefined), for which the growth inhibition was inactive: -8.97%.

In the case of `Cc1ccc(C(=O)OC2CN3CCC2CC3)cc1` (centres undefined), the growth inhibition is inactive: 0.174%. Then `CP(=O)(Nc1ccccc1Br)Oc1ccccc1` (centres undefined), with inactive: -0.246%; and `O=[N+]([O-])c1ccc(Nc2ccc(Oc3ccc([N+](=O)[O-])cc3[N+](=O)[O-])cc2)c([N+](=O)[O-])c1`, with inactive: -6.02%; and `O=P(Nc1ccccn1)(c1cccc2ccccc12)c1cccc2ccccc12`, with inactive: -2.39%. Turning to `Cc1cc(SC(NC=O)C(Cl)(Cl)Cl)ncn1` (centres undefined), the growth inhibition was inactive: 7.49%. `COc1ccccc1OP(C)(=O)Nc1ccccc1` (centres undefined): the growth inhibition was inactive: -0.0197%. Then `CCOC(=O)Nc1cccc([As](=O)(O)O)c1`, with inactive: 17.7%; and `CP(=S)(Nn1cnnc1)Oc1ccccc1` (centres undefined), with inactive: 6.53%. The result for `CCCCOc1ccc(C(=O)NCC2(N3CCCCC3)CCCCC2)cc1OC` reads inactive: 12.8%.

In the case of `Cc1cc(SC(NC(=O)c2ccccc2)C(Cl)(Cl)Cl)nc(C(C)C)n1` (centres undefined), the growth inhibition was inactive: 7.04%.

On to `COc1ccc(NC(=NP(=O)(N2CCOCC2)N2CCOCC2)N2CCOCC2)cc1`, for which the growth inhibition was inactive: 4.28%. The result for `CC1CCNP(=O)(N(CCCl)CCCl)O1` (centres undefined) reads inactive: 7.32%. Then `CCOC(=O)Nc1ccc([As](=O)(O)O)c(O)c1`, with inactive: 12.5%. Then `CP(=O)(Nc1ccccn1)Oc1ccc(Cl)cc1` (centres undefined), with inactive: -1.73%; and `CCC(C)N(CC(C)C)C(=S)SC(NC(C)=O)C(Cl)(Cl)Cl` (centres undefined), with inactive: 57.9%; and `CCOC(=O)c1ccc(NP(C)(=O)Oc2ccc(OC)cc2)cc1` (centres undefined), with inactive: -2.33%. `CCOC(=O)c1ccc(NC(=O)C(C)(CCl)SC)cc1` (centres undefined): the growth inhibition is inactive: 15.4%. For the molecule `O=[N+]([O-])c1cc([N+](=O)[O-])c(O)c([N+](=O)[O-])c1.c1ccc(Oc2ccncc2)cc1`, the growth inhibition was inactive: 4.24%. Then `CCOP(C)(=S)SCC(=O)NC(C)C(=O)O` (centres undefined), with inactive: 8.66%; and `O=C(OC1CN2CCC1CC2)c1cccc([N+](=O)[O-])c1` (centres undefined), with inactive: 10.8%. Turning to `CCc1ccc(OP(C)(=O)N2CCN(c3ccc([N+](=O)[O-])cc3)CC2)cc1` (centres undefined), the growth inhibition is inactive: 2.77%.

For `O=C(COc1ccccc1)OC1CN2CCC1CC2` (centres undefined), the growth inhibition was inactive: 0.268%. The result for `CP(=O)(NC(=O)Nc1ccccc1)Oc1ccccc1` (centres undefined) reads inactive: 12%; that for `O=C(Nc1ccncc1[N+](=O)[O-])c1ccc([N+](=O)[O-])cc1[N+](=O)[O-]`, inactive: 20.9%; that for `Cc1cc(C)cc(OP(C)(=O)Nc2ccc(SC(F)(F)F)cc2)c1` (centres undefined), inactive: -11%.

In the case of `CC1OP(=O)(Oc2ccccc2)C(O)C(O)C1N=[N+]=[N-]` (centres undefined), the growth inhibition was inactive: -1.1%.

In the case of `Cc1cccc(C)c1OP(C)(=O)Nc1ccc(SC(F)(F)F)cc1` (centres undefined), the growth inhibition is inactive: -17.2%. The result for `CP(=O)(Nc1ccc(SC(F)(F)F)cc1)Oc1ccc(Cl)cc1` (centres undefined) reads inactive: -24.8%; that for `COP1(=S)c2c(C)nn(CCC#N)c2N=C(c2ccc(F)cc2)N1C` (centres undefined), inactive: 4.85%; that for `CP(=O)(Oc1ccccc1)OC(c1ccccc1)C(F)(F)F` (centres undefined), inactive: 6.12%. The result for `CCC(CO)(C(=O)OC1CN2CCC1CC2)c1ccccc1` (centres undefined) reads inactive: 11.6%. Then `COc1ccc2nc(NP(=O)(c3ccccc3)c3ccccc3)sc2c1`, with inactive: 3.95%.

For the molecule `COc1cc(I)ccc1[As](=O)(O)O`, the growth inhibition is inactive: 7.68%. Then `O=P1(N(CCCl)CCCl)Nc2ccccc2N1`, with inactive: 2.33%; and `O=C(OC1CN2CCC1CC2)C12CC3CC(CC(C3)C1)C2` (centres undefined), with inactive: 5.7%; and `Cc1cc(=O)[nH]c(N[N+](=O)[O-])n1`, with inactive: 7.2%.

Regarding `CCN(CC)CCCOC(=O)C(O)(c1ccccc1)c1ccccc1`, the growth inhibition was inactive: 6.76%.

Take `Cc1c2c(nc3ccccc13)SC(C(Cl)Cl)C2` (centres undefined): the growth inhibition is inactive: -11.6%.

Take `Cc1cc(C)cc(OP(C)(N)=O)c1` (centres undefined): the growth inhibition was inactive: 1.14%. Then `CCN(CC)C(=S)SC(NC=O)C(Cl)(Cl)Cl` (centres undefined), with inactive: 0.462%. The result for `O=C(OC1CN2CCC1CC2)c1cccc2[nH]cnc12` (centres undefined) reads inactive: 3.57%. Turning to `COc1ccccc1OP(C)(=O)Nc1cc(Cl)ccc1C` (centres undefined), the growth inhibition was inactive: -2.15%.

Regarding `CC(C)NC(=O)NP(=O)(Oc1ccccc1)Oc1ccccc1`, the growth inhibition was inactive: 1.05%. `COc1ccc(OP(C)(=O)Nc2cccc(F)c2)cc1` (centres undefined): the growth inhibition was inactive: 14.1%. Then `COc1ccccc1OP(C)(=O)Nc1ccc(C)cc1` (centres undefined), with inactive: 3.57%; and `Cc1ccc(NP(C)(=O)Oc2ccccc2)c(C)c1` (centres undefined), with inactive: 1.03%; and `CC(C)c1ccc(OP(=O)(Nc2ccccn2)Oc2ccccc2F)cc1` (centres undefined), with inactive: -20.3%. Then `CCOC(=O)c1ccc(NP(C)(=O)Oc2ccccc2)cc1` (centres undefined), with inactive: 2.26%; and `COc1ccc2c(c1O)-c1c(O)c(OC)cc3c1C(C2)[N+](C)(C)CC3.O=[N+]([O-])c1cc([N+](=O)[O-])c([O-])c([N+](=O)[O-])c1[O-]` (centres undefined), with inactive: 0.968%; and `ClCCSc1nnc(-c2cccnc2)o1`, with inactive: -0.467%. The result for `Cc1ccc2nc3c(c(C)c2c1)CC(C(Cl)Cl)S3` (centres undefined) reads inactive: 11.2%. For the molecule `O=[N+]([O-])c1ccc2c(c1)C=Nc1ccccc1O2`, the growth inhibition is inactive: -4.65%.

On to `CC(C)(C)c1ccc(OP(C)(=O)Nc2ccc(SC(F)(F)F)cc2)cc1` (centres undefined), for which the growth inhibition was inactive: -7.97%. Then `Cc1ccc(OP(=O)(Nc2ccc([N+](=O)[O-])cn2)Oc2ccc(C)cc2)cc1`, with inactive: 2.76%; and `Cc1cccc(C)c1OP(C)(N)=O` (centres undefined), with inactive: 1.53%. Take `C[As](=O)(O)c1cccc(C(=O)O)c1`: the growth inhibition is inactive: -2.4%.

For `O=[As](O)(c1ccc(O)cc1)c1ccccc1O`, the growth inhibition was inactive: 6.32%. As for `COc1cc(C(=O)NCC2(N3CCOCC3)CCCCC2)ccc1OCC(C)C`, the growth inhibition is inactive: 7.49%. Then `O=[N+]([O-])c1ccc(-c2cc([N+](=O)[O-])c(O)c([N+](=O)[O-])c2)cc1`, with inactive: 9%; and `CCCC(C)(O)C1CC23C=CC1(OC)C1Oc4c(O)ccc5c4[C@@]12CCN(C)[C@@H]3C5` (some centres undefined), with inactive: 7.85%. As to `O=[N+]([O-])c1cc([N+](=O)[O-])c(Nc2cccnc2)c([N+](=O)[O-])c1`, the growth inhibition is active: 97.5%.

The values are drawn from PubChem BioAssay AID1259309 (ICCB-Longwood Screening Facility, Harvard Medical School, 2017).
